Common to all, as to type: functional
Common to all, as to conditions: Concentration 20.0 uM

One assay concerns Staphylococcus aureus. Kind of assay: Antibacterial activity against Staphylococcus aureus MRSA ATCC 43300 (CO-ADD:GP_020); MIC in CAMBH media using NBS plates, by Resazurin F(560/590). On the technique in general: The colour change of resazurin is a common sign of viable cells or microbes.
Another assay has as its system Acinetobacter baumannii. Put plainly: Antibacterial activity against Acinetobacter baumannii ATCC 19606 (CO-ADD:GN_034); MIC in CAMBH media using NBS plates, by Resazurin F(560/590).
The next assay concerns Escherichia coli. Kind of assay: Antibacterial activity against Escherichia coli ATCC 25922 (CO-ADD:GN_001); MIC in CAMBH media using NBS plates, by Resazurin F(560/590).

The inhibition is the drop in the measured response relative to a control, in per cent. For the compound `O=[As](O)(c1cccc(O)c1)c1cccc(O)c1`, the inhibition in the assay on Staphylococcus aureus was 7.27%; in the assay on Acinetobacter baumannii it was 8.02%; in the assay on Escherichia coli, -5.83%.
For `O=[As]1(O)c2ccccc2-c2ccccc21`, the inhibition was 0.14% in the assay on Staphylococcus aureus, 13.4% in the assay on Acinetobacter baumannii and -4.58% in the assay on Escherichia coli.
`COc1ccc(O)c2c(=O)c3c(OC)cc4c(c3oc12)[C@@H]1C=CO[C@@H]1O4`: the results for the inhibition in the assay on Staphylococcus aureus, in the assay with Acinetobacter baumannii and with Escherichia coli were 23.3%, -1.59% and 17.6%, respectively.
As to `O=C(O)CNc1ccc([As](=O)(O)O)cc1`, the inhibition in the assay with Staphylococcus aureus was 1.94%; with Acinetobacter baumannii, 15.6%; in the assay on Escherichia coli it was -7.75%.
`CCOC(=O)Nc1ccc([As](=O)(O)O)c(O)c1`: the inhibition in the assay with Staphylococcus aureus was -8.08%; in the assay with Escherichia coli it was -0.82%.
As to `Nc1cccc2c([As](=O)(O)O)cccc12`, the inhibition in the assay on Staphylococcus aureus is -4.59%; in the assay with Acinetobacter baumannii, 22.8%; in the assay on Escherichia coli, 15.7%.
With `Nc1cccc2ccc([As](=O)(O)O)cc12`, the inhibition is -5.17% with Staphylococcus aureus and 12.4% in the assay with Acinetobacter baumannii.
On to `CCOC(=O)Nc1cccc([As](=O)(O)O)c1`, for which the inhibition with Acinetobacter baumannii came out at 11.7%.
As for `COc1cc(I)ccc1[As](=O)(O)O`, the inhibition came out at 5.35% in the assay on Staphylococcus aureus, 9.97% in the assay with Acinetobacter baumannii and 1.31% in the assay with Escherichia coli.
As for `CCOP(=O)(Nc1ccc(C)cn1)OCC`, the inhibition in the assay on Staphylococcus aureus was 1.14%; with Acinetobacter baumannii it was -9.45%; in the assay on Escherichia coli it was 7.53%.
As for `CCCOP(=S)(Nc1nc(N)cc(O)n1)OCCC`, the inhibition amounted to 9.68% with Staphylococcus aureus and 8.45% in the assay with Escherichia coli.
With `O=[As](O)(c1cccs1)c1cccs1`, the inhibition was 12.7% with Staphylococcus aureus, 5.86% with Acinetobacter baumannii and 17% in the assay with Escherichia coli.
As to `O=C(O)COc1ccc([As](=O)(O)O)cc1[N+](=O)[O-]`, the inhibition was -6.06% in the assay with Staphylococcus aureus and 5.36% in the assay with Escherichia coli.
As for `Nc1ccc([As](=O)(O)O)c(O)c1`, the inhibition was -0.35% with Staphylococcus aureus and 8.42% with Escherichia coli.
Regarding `c1cc(-c2nn[nH]n2)ccc1-c1nn[nH]n1`, the inhibition in the assay with Staphylococcus aureus was 4.9%; with Acinetobacter baumannii, 13%; with Escherichia coli it was -1.52%.
For `O=P1(N(CCCl)CCCl)OCCC2CCCCN21` (configuration not stated), the inhibition with Staphylococcus aureus is 6.84%; in the assay on Acinetobacter baumannii, -9.23%; in the assay with Escherichia coli it was 7.35%.
For `Nc1cccc([As](=O)(O)c2ccccc2)c1` the same measures were 10.7%, 8.84% and -0.33%.
Turning to `O=[As](O)(c1ccc(Cl)cc1)C1CCCCC1O` (configuration not stated), the inhibition with Staphylococcus aureus is 16.2%; with Acinetobacter baumannii, 14.1%; with Escherichia coli, 4.28%.
In the case of `O=[As](O)(O)c1cccnc1`, the inhibition with Staphylococcus aureus is -0.56%; in the assay on Escherichia coli it was 6.79%.
As for `C[As](=O)(O)c1cccc(C(=O)O)c1`, the inhibition came to 17% in the assay with Staphylococcus aureus, 5.45% with Acinetobacter baumannii and 18% with Escherichia coli.
As to `CC(=O)Nc1ccc([As](=O)(O)O)cc1`, the inhibition is 2.57% with Staphylococcus aureus, 12% in the assay with Acinetobacter baumannii and 0.84% in the assay on Escherichia coli.
Take `O=[N+]([O-])c1ccc(Nc2ccc(Oc3ccc([N+](=O)[O-])cc3[N+](=O)[O-])cc2)c([N+](=O)[O-])c1`: the inhibition is 25.9% in the assay on Staphylococcus aureus, -4.57% in the assay with Acinetobacter baumannii and 13.1% with Escherichia coli.
For `O=C(Nc1cc([As](=O)(O)O)ccc1O)c1ccccc1`, the inhibition in the assay on Staphylococcus aureus was -0.05%; with Escherichia coli, 9.88%.
Consider `O=C(O)c1ccccc1[As](=O)(O)O`, for which the figures for the inhibition in the assay with Acinetobacter baumannii and in the assay with Escherichia coli were -6.05% and 3.88%, respectively.
Turning to `O=[As](O)(c1ccccc1)c1ccc(O)cc1`, the results for the inhibition in the assay with Staphylococcus aureus, with Acinetobacter baumannii and in the assay with Escherichia coli were 9.08%, 4.68% and 3.49%, respectively.
For the compound `Nc1ccc([As](=O)(O)c2ccc([N+](=O)[O-])cc2)cc1`, the inhibition with Staphylococcus aureus was 4.19%; in the assay on Escherichia coli, 9.29%.

These data come from ChEMBL document CHEMBL4296182, “CO-ADD screening of NIH NCI Diversity Set V”.
